Results of unrelated studies side by side (data: NIAID ChemDB).

All rows: cytotoxicity tests; cell line: MT-4; method: trypan blue; measure: CC50

CCn: concentration that lowers growth or viability of the cells by n%.

Nc1ncnc2c1ncn2[C@H]1CC[C@@H](CO)O1 ; result: 213 µM
Cc1cn([C@H]2C[C@H](N=[N+]=[N-])[C@@H](COP(=O)([O-])OCC[N+](C)(C)C)O2)c(=O)[nH]c1=O ; result: >231.5 µM
Cc1cn([C@H]2C=C[C@@H](CO)O2)c(=O)[nH]c1=O ; result: 14 µM
COC(=O)[C@H](C)NP(=O)(OC[C@H]1C=C[C@@H](n2cnc3c(N)ncnc32)C1)Oc1ccc(Cl)cc1 ; result: 3.43 µM
Cc1cn([C@@H]2O[C@H](CC3CCCCC3)C3(OS(=O)(=O)C=C3N)[C@H]2OC(=O)c2ccccc2)c(=O)[nH]c1=O ; result: 6.4 µg/mL
COC(=O)[C@@H]1CCCN1P(=O)(OC[C@H]1C=C[C@@H](n2cnc3c(N)ncnc32)C1)Oc1ccccc1 ; result: 106 µM
CC1(C)C2CC[C@]3(C)C(C(=O)C=C4C5C[C@@](C)(C(=O)Nc6c[nH]c(=O)[nH]c6=O)CC[C@]5(C)CC[C@]43C)[C@@]2(C)CC[C@@H]1O[C@H]1O[C@H](C(=O)Nc2c[nH]c(=O)[nH]c2=O)[C@@H](O)[C@H](O)[C@H]1O[C@@H]1O[C@H](C(=O)Nc2c[nH]c(=O)[nH]c2=O)[C@@H](O)[C@H](O)[C@H]1O ; result: 2080 µg/mL
Cc1cn([C@@H]2O[C@H](CO[Si](C)(C)C(C)(C)C)[C@@]3(OS(=O)(=O)C=C3N)[C@H]2O[Si](C)(C)C(C)(C)C)c(=O)[nH]c1=O ; result: 7.7 µg/mL
O=c1ccn([C@H]2CC[C@@H](CO)O2)c(=O)[nH]1 ; result: >500 µM
COC(=O)[C@@H](Cc1ccccc1)NP(=O)(OC[C@H]1C=C[C@@H](n2cnc3c(N)ncnc32)C1)Oc1ccccc1 ; result: 71 µM
Cc1cn([C@H]2C[C@H](N=[N+]=[N-])[C@@H](CO)O2)c(=O)[nH]c1=O ; result: 3.5 µg/mL
CS(=O)(=O)c1ccc(OP(=O)(OC[C@@H]2C=C[C@H](n3ccc(N)nc3=O)O2)OC[C@@H]2C=C[C@H](n3ccc(N)nc3=O)O2)cc1 ; result: 232 µM
COC(=O)[C@H](CC(C)C)NP(=O)(OC[C@H]1C=C[C@@H](n2cnc3c(N)ncnc32)C1)Oc1ccccc1 ; result: 23.2 µM
Nc1ncnc2c1ncn2[C@@H]1C=C(CO)[C@@H](O)[C@H]1O ; result: 0.016 µg/mL
Cc1cn([C@H]2CC[C@@H](CO)O2)c(=O)[nH]c1=O ; result: >500 µM
Cc1cn([C@@H]2O[C@H](CCC(C)C)C3(OS(=O)(=O)C=C3N)[C@H]2OC(=O)c2ccccc2)c(=O)[nH]c1=O ; result: 12 µg/mL
CSc1ccc(OP(=O)(OC[C@@H]2C=C[C@H](n3cnc4c(N)ncnc43)O2)OC[C@@H]2C=C[C@H](n3cnc4c(N)ncnc43)O2)cc1 ; result: >250 µM
COC(=O)[C@H](C)NP(=O)(OC[C@H]1C=C[C@@H](n2cnc3c(N)ncnc32)C1)Oc1ccc([N+](=O)[O-])cc1 ; result: 21.6 µM
CSc1ccc(OP(=O)(OC[C@@H]2C=C[C@H](n3cc(C)c(=O)[nH]c3=O)O2)OC[C@@H]2C=C[C@H](n3cc(C)c(=O)[nH]c3=O)O2)cc1 ; result: >250 µM
COC(=O)C[C@@H](NP(=O)(OC[C@H]1C=C[C@@H](n2cnc3c(N)ncnc32)C1)Oc1ccccc1)C(=O)OC ; result: ≥250 µM
CC(C)(C)OC(=O)N[C@@H](Cc1ccccc1)C(=O)N[C@H](Sc1ccccc1)C(=O)NCc1ccccc1 ; result: 50 µM
CSc1ccc(OP(=O)(OC[C@@H]2CC[C@H](n3cnc4c(=O)[nH]cnc43)O2)OC[C@@H]2CC[C@H](n3cnc4c(=O)[nH]cnc43)O2)cc1 ; result: >250 µM
Cc1cn([C@@H]2O[C@H](CC3CCCCC3)C3(OS(=O)(=O)C=C3N)[C@H]2O[Si](C)(C)C(C)(C)C)c(=O)[nH]c1=O ; result: 7.4 µg/mL

Neighbouring rows are from separate reports.